This note sets out measurements from article PMC11950254, “Antiviral Susceptibility of Influenza A(H5N1) Clade 2.3.2.1c and 2.3.4.4b Viruses from Humans, 2023–2024” (2025).

Like-named read-outs stand apart in the source and are kept apart here.

Test [1] deals with A/Wisconsin/53/2009 (H1N1)pdm09.
Another test has as its system A/Michigan/90/2024. The test can be described thus: Virus yield reduction assay. The settings on record: 16 hpi; MDCK-SIAT1.
A further test has as its system A/Texas/37/2024. The test can be described thus: Virus yield reduction assay. The settings on record: MDCK-SIAT1.
Test [2] relates to A/bald eagle/FL/2022 (H5N1). The test can be described thus: Virus yield reduction assay. The settings on record: MDCK-SIAT1.
Test [3] has as its system A/Cambodia/KSH230332/2023. Briefly: Virus yield reduction assay. The settings on record: MDCK-SIAT1.
The subject of another test is A/Chile/25945/2023. The test can be described thus: Virus yield reduction assay. The settings on record: MDCK-SIAT1.
Test [4] concerns A/Wisconsin/53/2009 (H1N1)pdm09. The test can be described thus: Virus yield reduction assay. The following applies: MDCK-SIAT1.
In test [5] the test system is A/California/07/2009 (H1N1)pdm09, M2-S31N. The settings on record: 21 hpi, maximum reduction at M2 blocker concentrations <1 µg/mL, MDCK-SIAT1.
Test [6] relates to Clade 2.3.2.1c viruses, n = 7. The test can be described thus: IRINA (influenza replication inhibition NA-based assay). The following applies: early 2023 nonreassortant vs other clade 2.3.2.1c viruses.
The target of test [7] is NA activity of A/Cambodia/NPH230032/2023 (Influenza A virus, UniProt A0A1L2FNJ6, V129I).
For test [8], the target named is NA activity of A/Cambodia/2302009/2023 (Influenza A virus, UniProt A0A1L2FNJ6, V129I).
The mark [9] stands for this setting: 21 hpi, maximum reduction at M2 blocker concentrations <1 µg/mL.

In the case of `CC(N)C12CC3CC(CC(C3)C1)C2` (stereo not shown), the “Mean EC50 ±SD” value amounted to 6.48 ± 1.88 ng/mL with A/Cambodia/24020155/2024 and 6.48 ± 1.46 ng/mL in test [1]. The “log reduction in titer” value was 5.1 log10 in the test with A/Michigan/90/2024; 5.5 log10 in the test with A/Texas/37/2024 (16 hpi); 1.7 log10 in the test with A/Texas/37/2024 (setting [9]); 3.5 log10 in test [2] (16 hpi); 2.3 log10 in [2] (setting [9]); 2.2 log10 in test [3] (16 hpi). In addition, the “log reduction in titer” value is given as 1.8 log10 in test [3] (setting [9]); 1.6 log10 in the test with A/Chile/25945/2023 (16 hpi); 0.7 log10 with A/Chile/25945/2023 (setting [9]); 3.7 log10 in test [4] (16 hpi); 3.1 log10 in [4] (setting [9]); “≈ 3.0 log10” in test [4] (21 hpi, maximum reduction at M2 blocker concentrations <1 µg/mL, listed as rimantadine). Further, the “log reduction in titer” value in test [5] (listed as rimantadine) is under 0.2 log10.

Turning to `NC12CC3CC(CC(C3)C1)C2`, the “log reduction in titer” value in the test with A/Michigan/90/2024 is 5.1 log10; in the test with A/Texas/37/2024 (16 hpi) it was 3.6 log10; in the test on A/Texas/37/2024 (setting [9]), 1.1 log10; in test [2] (16 hpi), 3.4 log10; in [2] (setting [9]) it was 2.2 log10; in test [3] (16 hpi) it was 2.0 log10. The “log reduction in titer” value in test [3] (setting [9]) is recorded as 1.3 log10; with A/Chile/25945/2023 (16 hpi), 1.2 log10; in the test on A/Chile/25945/2023 (setting [9]) it was 0.5 log10; in test [4] (16 hpi) it was 3.0 log10; in test [4] (setting [9]), 3.0 log10; in test [4] (21 hpi, maximum reduction at M2 blocker concentrations <1 µg/mL, listed as amantadine) it was “≈ 3.0 log10”. The “log reduction in titer” value in test [5] (listed as amantadine) is under 0.2 log10.

In the case of `O=C(O)[C@H]1C2CCC(CC2)[C@@H]1Nc1nc(-c2c[nH]c3ncc(F)cc23)ncc1F`, the “fold lower EC50s of early 2023 clade 2.3.2.1c viruses compared with other viruses from this clade” value in [6] was “≈ 6 fold”.

For oseltamivir carboxylate, the IC50 in test [7] worked out at 0.78 nM; in [8] it was 1 nM.

Usually IC50 stands for the concentration that inhibits the measured activity by half.
